Results published in PMC4081560 (PLoS ONE, 2014).

Tests used:
[1] = target: K/2785 virus (A/Korea/2785/2009) neuraminidase (NA H275Y) (Influenza A virus, UniProt C5MQP8, H275Y); experiment: fluorescent NI assay (MU-NANA substrate); type: biochemical, 2009 pandemic H1N1 oseltamivir-resistant variant; conditions: K/2785 vs K/09
[2] = target: rK09/NA:Y275 virus neuraminidase (NA H275Y) (Influenza A virus, UniProt C5MQP8, H275Y); experiment: fluorescent NI assay (MU-NANA substrate); type: biochemical, 2009 pandemic H1N1 virus (recombinant); conditions: rK09/NA:Y275 vs K/09

CCC(CC)O[C@@H]1C=C(C(=O)O)C[C@H](N)[C@H]1NC(C)=O [Oseltamivir carboxylate]
higher concentration needed compared with K/09 virus [1]: more than 20 fold | elevation of IC50 compared with K/09 virus [2]: more than 75 fold
